Measured values from article PMC4847859.

How the values were obtained:
[1] = molecular target: CdpR (Pseudomonas aeruginosa PAO1) (UniProt Q9I0P9); test: EMSA; settings: recombinant protein, probe letters rebuilt from the primers and the genome; for binding result: 0.125-1 uM
[2] = molecular target: CdpR (Pseudomonas aeruginosa PAO1) (UniProt Q9I0P9); test: DNase I footprinting; settings: CdpR 4.0 uM or 2 uM (Methods); recombinant protein; label: 5' 6-FAM on pqsH-gf strand; probe letters rebuilt from the primers and the genome

“CCTGGCAGGCATGGAGAGCGCCAGCAGGACGCAGGACAGCAAGAGCGCGGTGAATGCGGAACGTGACATGGCGACCCTCTTCTTGTTTTCCGCCGCTGGGCGGGCTGGGGACGGTGGTCATCGAAAGCGGGCCGGAGCCTGCTTCGCCTGGTTGCCACTGTAGTGCCAGGGTGGTGGAGTCGAGGGGGGCGTAGCGGACAGGAAGGGGGTGAGCGCCGGCCATCCTGCATGGACGGCAAGGCAGGCGGGTAAAAAAAGGCCGCCTGCGTGGGGAGGCACCGGCGGCCAGTCGGTTCGGCAGCGTCGAGCCGGTCTGCAAGGGCTGGCGCAGGTCTCGGCTGCGGCCTGCGCCGACGCTCCCGAGGGCATTCGTAGTGTGCCCGACGCCGGCTGTCAGGGCGCTGACGCCCGCCTGACAATGCCGACAGCGGACACCGGGCGCATGCTTATTTCACCAGCGCCCTCTCGCCTTCCTCGCGGACCCAGAACAGGGTGGCGCCGGCGACGGCGGCGGGCATCATGACCAGGTTGACCAGCGGGATCAGCAGCGCCAGGTAG (double strand) [cerN promoter]”: binds [1].

“GTGGATACCTGGGCGAGTTCGTAGCGCGCATCGGCGGCATTGTTGTGCATGGGCGAAATCCTGAGCCGGTCTCGGCTTCGTTCTTGTTCTGGCGGTGGATCGCGACATGGGATGAGCGTCCCATCATATAGCGTTCCGCACAGATGTAACAAAGCATTGCGCAGTGTCCGCAAATCCCCCCCTCGCTGACCGTCAATGCCCTGCCTCGGCCTGCCGTTAGGGCTTATTCCTATGCCGTGCCCCGAGCCACGCCAACAATAATAAGAGCCCGCCCATGAACCCGATCCGCCCCCACAGGCCCCTGCGCCTGGCCGCCTGCGTCACCCTCGCCGTCAGCTGCTGCACCCACGCCAGCGAAGGCGGCGTGGACAACATTGGTCCAGGAACCGACGGTTTCTTCACCCTGCCACTGGACGTCGACAACCTCCCCGACCACATGTTCGCCTTCAACGTCTACTACAACCACTACGAAGCCAGGAAGCTGAACATCAGCTCCTTCGGCGGCAAGGTGTCCGACGTGAAGATCAGCTCGGAT (double strand) [sphR promoter]”: binds [1].

“TAAGGGGTTGACAGGAGCGGGGTCTGCGTATAGCCGCGCCTCCGCGACGCCGTGCCGATCGGTCGTGCATGCTTGCCGTGGCCCGGCTGAGCACTGCCGTCCCGGCCACTCTCGCCGGGGTGGCTGCGCCTGGATGATCGTCGTGGGCGGTGGTGGCGCGGGCCGGTCGCCCTGAGCTTCAGGCGCCATCGCCGCTTGCCGGCGCTCGGGAGGCCGCTGGCCAAGGAAAACCGTAGCGCCGCGGCGGGCGGCGGCTAGCGGGGATTTCCGGCCACGCGTGCCGTGCCCGGGCCACGCTTGCCTTCCCGGCGCGCCGGACTCCCGGTGGCCTGGAGGACAGGAAAAGCGAGCGGCGAGGTGTCGGCGAGCAGGGTCAACTCGATCTTCTGATAGGGTCGGTGGGCTGTCCGGGGCGGCTAGGATGGACATTTTCATCGTCTCGGGCAGGCCTGTCGCGACCGCGCGAAGTCGCGACGGATGCCGCTGCTAAGGAGCAACGGATGACCGTTCTTATCCAGGGGGCCGGGATCGCCGGCCTGGCGCTGGCGCGCGAATTCACCAAGGCAGGCATCGACTGGCTGCTGGTC (double strand) [pqsH promoter footprint probe]”: binds [2].

With “TAAGGGGTTGACAGGAGCGGGGTCTGCGTATAGCCGCGCCTCCGCGACGCCGTGCCGATCGGTCGTGCATGCTTGCCGTGGCCCGGCTGAGCACTGCCGTCCCGGCCACTCTCGCCGGGGTGGCTGCGCCTGGATGATCGTCGTGGGCGGTGGTGGCGCGGGCCGGTCGCCCTGAGCTTCAGGCGCCATCGCCGCTTGCCGGCGCTCGGGAGGCCGCTGGCCAAGGAAAACCGTAGCGCCGCGGCGGGCGGCGGCTAGCGGGGATTTCCGGCCACGCGTGCCGTGCCCGGGCCACGCTTGCCTTCCCGGCGCGCCGGACTCCCGGTGGCCTGGAGGACAGGAAAAGCGAGCGGCGAGGTGTCGGCGAGCAGGGTCAACTCGATCTTCTGATAGGGTCGGTGGGCTGTCCGGGGCGGCTAGGATGGACATTTTCATCGTCTCGGGCAGGCCTGTCGCGACCGCGCGAAGTCGCGACGGATGCCGCTGCTAAGGAGCAACGGATGACCGTTCTTATCCAGGGGGCCGGGATCGCCGGCCTGGCGCTGGCGCGCGAATTCACCAAGGCAGGCATCGACTGGCTGCTGGTC (double strand) [pqsH-p (pqsH-cdpR intergenic region)]” the half-maximal binding ([1]; about 50% of probe shifted, DNA 40 nM) was 500 nM.

For at least one entry, the source does not settle the construct or the ends of the probe.
